The text below walks through data of patent publication US20100074916A1, “AVIAN INFLUENZA VACCINE” (published 2010).

One assay concerns Dk97. The settings on record: reference strain, symbols not defined in the patent; cited from earlier work.
A further assay has as its system wild type H5 KAN-1 HA. The assay can be described thus: Glycan microarray, glycan binding by control (wild type) HA.
For a further assay, the system named is Viet04. The settings on record: reference strain, symbols not defined in the patent; cited from earlier work.

Turning to α1-Acid Glycoprotein B, the “binding Dk97” value in the assay with Dk97 was “nb”. Neu5Acβ2-6GalNAcα-Sp8 gave a CONTROL with wild type H5 KAN-1 HA of 79 RFU.

With Fibrinogen, the “binding Dk97” value with Dk97 was “nb”. Further, the “binding Viet04” value in the assay with Viet04 is “nb”. Turning to Neu5Acα2-3Galβ1-3(Fucα1-4)GlcNAcβ-Sp8, the CONTROL in the assay on wild type H5 KAN-1 HA is given as 820 RFU. On the same count and under the same terms, in the case of Neu5Acβ2-6Galβ1-4GlcNAcβ-Sp8 it was 39 RFU; in that of “NeuAcα2-3Galβ1-3(Fucα1-4)GlcNAcβ1-3Galβ1-4(Fucα1-3)GlcNAcβ Sp0”, 2351 RFU. The same measure, in the same setting: in the case of “Neu5Acα2-3Galβ1-3(Neu5Acα2-3Galβ1-4GlcNAcβ1-6)GalNAc-Sp14” it was 62478 RFU. Same read-out and setting: in the case of “Neu5Acα2-3Galβ1-4(Fucα1-3)GlcNAcβ1-3Galβ1-4(Fucα1-3)GlcNAcβ1-3Galβ1-4(Fucα1-3)GlcNAcβ-Sp0” it was 2248 RFU. Regarding Transferrin, in the assay with Dk97, the “binding Dk97” value was “nb”. In addition, the “binding Viet04” value in the assay with Viet04 was “nb”. Take “Neu5Acα2-3Galβ1-4GlcNAcβ1-2Manα1-3(Neu5Acα2-3Galβ1-4GlcNAcβ1-2Manα1-6)Manβ1-4GlcNAcβ1-4GlcNAcβ-Sp12”: the CONTROL with wild type H5 KAN-1 HA turned out to be 55128 RFU. Same read-out and setting: in the case of “Galβ1-3(Neu5Acα2-3Galβ1-4(Fucα1-3)GlcNAcβ1-6)GalNAc-Sp14” it was 404 RFU. For the substance Ceruloplasmine, the “binding Dk97” value with Dk97 was “nb”. For the same substance, the “binding Viet04” value in the assay with Viet04 is recorded as “nb”.
